Target: rViscumin (Viscum album, UniProt P81446, E393Q/H331R/I468S/Q471K)
Conditions: rViscumin 1 μg/ml, 1 hour; detected with mAb TA5

Substance: Galβ1-4Glcβ1-1Cer
- rViscumin (binding to the glycosphingolipid, TLC overlay): very weak binding
